Taken from: PubChem BioAssay AID624099 (ICCB-Longwood, 2012)
The deposit covers about 21,000 reagents; below is a random part of them. 497 of them (2.4%) count as active. 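Higher z means weaker E2 silencing; only reporter increases were scored, and knock-downs that hurt cell survival may mask genuine repressor factors.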 Unmarked entries are inactive. Reagents against one gene are numbered here. Reagent sequences are not shown.

Assay: 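Host factors E2 relies on to silence an HPV18 LCR reporter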 (primary screen)
Cells: human C33A cervical carcinoma cells (HPV-negative) stably expressing BPV1 E2 and an HPV18 LCR luciferase reporter
Knock-down reagent: siRNA pool against human genes, 40 nM
Duration: 72 h
Measured: 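HPV18 LCR reporter light per well, converted to plate-wise z-scores that exclude control wells, and averaged over triplicate plates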
Direction: mean z-score and z-score: higher = stronger reporter signal, weaker E2 silencing
Active means: 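Mean z ≥ 2 together with z ≥ 2 in two or more of the three replicates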

target gene | pool no. | mean z-score | z-score, replicate A | z-score, replicate B | z-score, replicate C
AKAP11 | 1 | – | 0.41 | -0.21 | –
LSMEM2 | 1 | -0.33 | 0.06 | -0.56 | -0.48
DBR1 | 1 | 0.05 | 0.04 | -0.28 | 0.38
SLC2A2 | 1 | 0.95 | 0.86 | 0.88 | 1.11
CA5BP1 | 1 | 1.27 | 1.27 | 1.21 | 1.32
MICALL2 | 1 | -0.2 | -1.4 | 0.55 | 0.24
FCER1G | 1 | 0.31 | 0.11 | 0.55 | 0.26
SCD5 | 1 | 1.71 | 1.53 | 1.46 | 2.15
OR10T2 | 1 | 0.07 | 0.53 | -0.12 | -0.18
JADE2 | 1 | -0.94 | -0.91 | -1.12 | -0.78
TDRP | 1 | -0.07 | -0.51 | 0.38 | -0.07
LINC03043 | 1 | -0.57 | -0.55 | -0.54 | -0.63
LINC03043 | 2 | 0.02 | 0.01 | -0.36 | 0.41
KRTAP10-4 | 1 | 0.31 | 0.11 | 0.37 | 0.45
LINC00313 | 1 | 0.33 | 0.54 | 0.05 | 0.39
PDCD1LG2 | 1 | -0.77 | -0.44 | -0.92 | -0.94
GSTA2 | 1 | -0.69 | -0.69 | -0.62 | -0.76
AKAP6 | 1 | 0.5 | 0.41 | 0.54 | 0.57
EPYC | 1 | 0.9 | 1.16 | 0.56 | 1
CD1D | 1 | -0.21 | -0.29 | -0.07 | -0.27
GSTT2 | 1 | -0.51 | -0.6 | -0.79 | -0.16
RPGRIP1L | 1 | -0.19 | -0.04 | -0.24 | -0.29
AKT2 | 1 | -1.12 | -0.92 | -1.23 | -1.21
NSMCE1 | 1 | -0.81 | -0.98 | -0.92 | -0.52
KANK2 | 1 | 1.45 | 1.43 | 1.53 | 1.38
DLG2 | 1 | 2.81 (active) | 2.8 | 2.68 | 2.97
DLG2 | 2 | -0.03 | -0.48 | 0.37 | 0.01
UEVLD | 1 | 3.18 (active) | 2.36 | 3.92 | 3.25
TSNAX | 1 | 0.04 | -0.01 | 0.04 | 0.09
HIF1A | 1 | -0.47 | -0.46 | -0.61 | -0.35
CD63 | 1 | 0.56 | 0.61 | 0.44 | 0.63
ABO | 1 | 0.02 | 0.28 | 0.09 | -0.32
TTC3P1 | 1 | 0.35 | 0.49 | 0.3 | 0.24
LOC401032 (retired record) | 1 | 0.87 | 1.17 | 0.59 | 0.84
ATP6V1F | 1 | -0.9 | -0.45 | -1.29 | -0.97
SCYL1 | 1 | -0.24 | 0 | -0.42 | -0.3
AMY2A | 1 | -0.21 | -0.16 | -0.12 | -0.34
DARS2 | 1 | -0.83 | -1.24 | -0.94 | -0.32
SLC67A2 | 1 | -0.14 | -0.08 | -0.42 | 0.09
HPS1 | 1 | -2.39 | -2.49 | -2.36 | -2.32
LOC391555 (retired record) | 1 | 0.11 | 0.48 | 0.11 | -0.26
LOC388420 (retired record) | 1 | -0.97 | -1.22 | -0.83 | -0.87
GUSBP1 | 1 | -0.32 | 0.08 | -0.77 | -0.26
SLC25A37 | 1 | 0.08 | 0.27 | -0.09 | 0.05
DOCK10 | 1 | -0.48 | -0.54 | -0.61 | -0.3
ACADVL | 1 | 0.48 | 0.85 | 0.42 | 0.17
DYTN | 1 | 0.45 | 0.22 | 0.47 | 0.65
ST6GAL2 | 1 | 0.21 | 0.2 | 0.17 | 0.27
CENPQ | 1 | 0.6 | -0.08 | 0.34 | 1.55
RFT1 | 1 | -0.5 | -0.16 | -0.56 | -0.78
RFT1 | 2 | 0.16 | 0.4 | -0.08 | –
ATG9B | 1 | -0.51 | -0.4 | -0.5 | -0.62
ASCL4 | 1 | -0.06 | -0.01 | -0.15 | -0.03
STAT5A | 1 | -0.61 | -0.77 | -0.64 | -0.43
RHOC | 1 | -0.41 | -0.37 | -0.58 | -0.29
CPAMD8 | 1 | 1.45 | 2.21 | 1.26 | 0.87
RBM47 | 1 | 2.68 (active) | 2.36 | 2.51 | 3.16
EFCAB13 | 1 | 0.16 | 0.26 | -0.08 | 0.28
MIOS | 1 | 1.84 | 1.69 | 2 | 1.83
LBX1-AS1 | 1 | -0.31 | -0.2 | -0.67 | -0.06
RABEP2 | 1 | 0.04 | 0.13 | -0.32 | 0.31
RAPGEF3 | 1 | 0.19 | 0.41 | 0.12 | 0.04
LEP | 1 | -0.19 | -0.38 | -0.04 | -0.13
TCP11 | 1 | 1.11 | 1.16 | 1.01 | 1.16
SH3RF1 | 1 | 0.61 | 0.39 | 0.48 | 0.96
DNMT1 | 1 | -0.03 | 0.45 | -0.12 | -0.41
RARA | 1 | -0.56 | -0.49 | -0.63 | -0.57
PREX2 | 1 | 0.69 | 0.84 | 0.47 | 0.77
CDRT15L2 | 1 | -0.07 | 0.18 | -0.51 | 0.11
PIEZO1-AS1 | 1 | 0.5 | 0.7 | 0.49 | 0.31
TEX261 | 1 | -0.37 | -0.53 | -0.22 | -0.35
TAX1BP1 | 1 | -0.94 | -1.08 | -0.79 | -0.95
APIP | 1 | 1.39 | 1.25 | 1.74 | 1.19

Hits, among the entries above:
target gene | pool no. | mean z-score | z-score, replicate A | z-score, replicate B | z-score, replicate C
DLG2 | 1 | 2.81 (active) | 2.8 | 2.68 | 2.97
UEVLD | 1 | 3.18 (active) | 2.36 | 3.92 | 3.25
RBM47 | 1 | 2.68 (active) | 2.36 | 2.51 | 3.16
